Series [1] addresses T1, enolase (ENO) (Mycoplasma gallisepticum S6) (UniProt A0A0F6CKZ5). Briefly: AFM. Conditions: high-molecular fibril-like complexes; AFM: 20 mM Tris-HCl pH 7.5 (Methods); recombinant protein; residues 1-475; label: 5'-6-FAM on forward strand; probe letters rebuilt from the primers and the genome.
For series [2], the target named is T1, enolase (ENO) (Mycoplasma gallisepticum S6). Put plainly: EMSA. Conditions: EMSA: 20 mM carbonate buffer pH 9.8, 6% glycerol, 2.5 pmol FAM-DNA, 10 min 37 C, 6% acrylamide gel at 10 C, recombinant protein, residues 1-475, label: 5'-6-FAM on forward strand, probe letters rebuilt from the primers and the genome.

Construct, isoform or probe ends are uncertain for at least one entry.

For “CGCTTCTTTTAACAATCCAGCAATCTTATTTACATGTTCAATCTTTTTTTGAATAATTGCTTTCATTGTGTATTTAAAATTCAATTAGTAAAGTGAAAACAATAACAAAGATTGTTATTAGATATGGTTATCTAACCTACATAACGAATTAAGGAAATCAAGTGATTTACCAGTTATGGTCTTTGGTTATTGCTTTAATAGTATATCATTCTTTACTTTATTTTTAAAGTATTCTTATGGAATTAGCTATCTTCACTTAAATTCTACTAAACACCACTACATCTGAACATGTCAG (double strand) [PrplJ]”, the binding result in series [1] is “binds”.

As a reminder, the Kd is the concentration at which binding is half-saturated. For the sequence “GGTGAATGCTTTTTCGATGAACTTTTTAATTCAGTAAAATTTCGAATTTTTTAAACTGGTGGTTTAAAAAATTTTTTATCAATTATTAATAATAATATTAAAATTAAAAACGAGAGTTAATTCAAAATATAAACTATAAAGAAAGAGAAAACTTAAATGTCAAAAATTAAAATTGGTATTAACGGGTTCGGACGC (double strand) [Pgapd]”, the Kd in series [2] (Hill n 2.7 +/- 0.8) was 1.1 µM.

With “TTTGGTTTATTTAAATACCACAAGAAAAAAATTCGCGAATATCTTTATAGATTTGTTTTTATTTTTATAAAATAAATAAAGAAATCATTTCAATAAAAAAATAACAAAAGAAGAAAATAAAATGGCAAAGACAAACAGTACTA (double strand) [Peno]”, the Kd in series [2] (Hill n 3.1 +/- 0.6) came out at 1 µM.

For the origin of these results see PMC8637272.
